Patent US20120269870A1, “SWITCHABLE POLYMERS AND SURFACES WITH REVERSIBLY SWITCHABLE PROPERTIES” (University of Washington through its Center for …, priority 2011, published 2012)

Assay: Amino reactivity of CB-Ring with model molecule benzylamine (HPLC-MS)
Type: physicochemical
Details: for conjugation efficiency with benzylamine: 5 molar excess of benzylamine, 30 min

SMILES	conjugation with benzylamine (in words) (control, zwitterionic form as starting material)	conjugation efficiency with benzylamine (acetonitrile) [%]	conjugation efficiency with benzylamine (pure water) [%]
C=C(C)C(=O)OCC(O)C[N+](C)(C)CC(=O)[O-] (stereo not drawn) [CB—OH, 2-((2-Hydroxy-3-(methacryloyloxy)propyl)dimethylammonio)acetate]	no conjugation; also recorded: no formation of CB—OH-benzyl conjugates		
C=C(C)C(=O)OCC1C[N+](C)(C)CC(=O)O1 (stereo not drawn) [CB-Ring, 2-(Methacryloyloxymethyl)-4,4-dimethyl-6-oxomorpholin-4-ium]		83	60

“Also recorded” adds a separate entry of the source.
